Results: patent US20240122867A1, “CORONAL PROTEIN-COATED NANOPARTICLES AND USES THEREOF” (UNIVERSITY OF CENTRAL FLORIDA RESEARCH FOUNDATION, INC., priority 2021, published 2024)

B1: Vitamin K-dependent protein C (protein, UniProt P33587 42-460, looked up)
Vitamin K-dependent protein C: ANSFLEEMRPGSLERECMEEICDFEEAQEIFQNVEDTLAFWIKYFDGDQCSAPPLDHQCDSPCCGHGTCIDGIGSFSCSCDKGWEGKFCQQELRFQDCRVNNGGCLHYCLEESNGRRCACAPGYELADDHMRCKSTVNFPCGKLGRWIEKKRKILKRDTDLEDELEPDPRIVNGTLTKQGDSPWQAILLDSKKKLACGGVLIHTSWVLTAAHCVEGTKKLTVRLGEYDLRRRDHWELDLDIKEILVHPNYTRSSSDNDIALLRLAQPATLSKTIVPICLPNNGLAQELTQAGQETVVTGWGYQSDRIKDGRRNRTFILTFIRIPLVARNECVEVMKNVVSENMLCAGIIGDTRDACDGDSGGPMVVFFRGTWFLVGLVSWGEGCGHTNNYGIYTKVGSYLKWIHSYIGEKGVSLKSQKL
B2: Lysozyme C-2 (protein, UniProt P08905 19-148, looked up)
Lysozyme C-2: KVYERCEFARTLKRNGMAGYYGVSLADWVCLAQHESNYNTRATNYNRGDQSTDYGIFQINSRYWCNDGKTPRAVNACGINCSALLQDDITAAIQCAKRVVRDPQGIRAWVAWRAHCQNRDLSQYIRNCGV
B3: Carboxypeptidase Q (protein, UniProt Q9WVJ3 43-470, looked up)
Carboxypeptidase Q: DVAKAIINLAVYGKYQNRSYERLGLLVDTVGPRLSGSKNLEKAIQIMYQNLQQDGLENVHLEQVRIPHWERGEESAVMLEPRIHKMAILGLGSSIGTPPGGITAEVLVVASFDELQRRASEARGKIIVYNQPYTGYEKTVQYRVQGAVEAAKVGAVASLIQSVASFSIYSPHTGIQKYQDGVPKIPTACITVEDAEMMSRMASRGNKIVIHLEMGAKTYPDTDSFNTVAEITGSMYPEEVVLVSGHLDSWDVGQGALDDGGGAFISWEALSLVKDLGLRPKRTLRLVLWTAEEQGGIGASQYYELHKANISKYSLVMEADSGTFLPTGLQFTGSDKARAIMKEVMNLLQPLNVTKVFSNGEGTDINFWIQAGVPGASLRDDLYKYFFFHHSHGDTMTVMDPKQMNVAAAVWAVVAYVVADMDEMLPRS
B4: Complement C1r-A subcomponent (protein, UniProt Q8CG16 17-707, looked up)
Complement C1r-A subcomponent: SIYLPQKLYGEVTSPLYPKPYPSDLETTTVITVPMGYRVKLVFWQFDVEPSEGCFYDYVKISADKQTLGRFCGQLDSPLGNPPGSKEFMSQGNKMLLTFHTDFSNEENGTIMFYKGFLAYYQAVDLDECASQPNSVEEGLQPRCQHLCHNYVGGYFCSCHPGYELQKDGQSCQAECSSELYTEPSGYVSSLEYPQPYPPDLRCNYSIRVERGLTVHLKFLDPFEIDDHQQVHCPYDQLQIYANGKNLGEFCGKQRPPDLDTSSNAVDLLFFTDESGDSRGWKLHYTTETIKCPQPKALDEFTIIQDPQPQYQFRDYFIVTCKQGYQLMEGNQALLSFTAVCQNDGTWHRAMPRCKIKNCGQPQSLSNGDFRYITTKGVTTYEASIQYHCHEPYYKMLTRAGSSESMRGIYTCTAQGIWKNEEEGEKMPRCLPVCGKPVNPVTQKERIIRGQPARPGNFPWQAFTTTHGRGGGALLGDRWILTAAHTIYPKHHNKENDNANPKMLVFLGHTNVEQIKKLGHHPVRRVIIHPDYRQDEPNNFEGDIALLELENSVTLGPELLPICLPDNETFYGQGLMGYVSGFGITEDKLAFDLRFVRLPVADSEACQRWLQTKKDTSPFSQNMFCSGDPAVQQDACQGDSGGVFAVRDRNRDIWVATGIVSWGIGCGEGYGFYTKVLNYVDWIKKEMGDEN
B5: Alpha-1-antitrypsin 1-4 (protein, UniProt Q00897 25-413, looked up)
Alpha-1-antitrypsin 1-4: EDVQETDTSQKDQSPASHEIATNLGDFALRLYRELVHQSNTSNIFFSPVSIATAFAMLSLGSKGDTHTQILEGLQFNLTQTSEADIHKSFQHLLQTLNRPDSELQLSTGNGLFVNNDLKLVEKFLEEAKNHYQAEVFSVNFAESEEAKKVINDFVEKGTQGKIVEAVKKLDQDTVFALANYILFKGKWKQPFDPENTEEAEFHVDESTTVKVPMMTLSGMLDVHHCSMLSSWVLLMDYAGNTTAVFLLPDDGKMQHLEQTLNKELISQFLLNRRRSDAQIHIPRLSISGNYNLKTLMSPLGITRIFNNGADLSGITEENAPLKLSKAVHKAVLTIDETGTEAAAATVLQVATYSMPPIVRFDHPFLFIIFEEHTQSPIFVGKVVDPTHK
B6: Murinoglobulin-2 (protein, UniProt P28666 28-1451, looked up)
Murinoglobulin-2: DSKYMVLVPSQLYTETPEKICLHLYHLNETVTVTASLVSQTGRRNLFDELVVDKDLFQCVSFIIPTLNSPDEEEFLYVDIKGPTHEFSKRNAVLVKNKESVVFVQTDKPVYKPGQSVKFRVVSMDKTLRPLNELLPLAYIEDPKKNRIMQWRDIKTENGLKQMSFSLAAEPIQGPYKIVVHKQSGVKEEHSFTVMEFVLPRFNVDLKVPNAISVNDEVLQVTVCGKYTYGKPVPGQVKISICHETEAGCKEVNSKLDNNGCSTQEVNITELQSKKRNYEVQLFHVNATVTEEGTGLEFNGYGTTKIERITNKLIFLKADSHFRHGIPFFVKVRLVDIKGDPIPNERVFIKAQVLGYTSATTTDQHGLAKFSIDTAGFSGSSLHIKVNHKGKDSCYFFYCMEERYASAEHVAYAVYSLSKSYIYLVKETSSILPCNQIHTVQAHFILKGDLGVLKELVFYYLVMAQGSIIQTGNHTHQVEPGEAPVKGNFDLEIPVEFSMAPMAKMLIYTILPDGEVIADSVNFEIEKCLRNKVDLSFSSSQSLPASQTRLQVTASPQSLCGLRAVDQSVLLLKPEDELSPSWIYNLPGMQHNKFIPSSSLSEDREDCILYSSWVAEKHTDWVPHGREKDVYRYVEDMDLKAFTNLKIKLPKICFDSAPMSGPRGKFDLAFSSEVSGTLQKGSSKRPQPEEPPREDPPPKDPLAETIRKYFPETWVWDIVTVNSTGVAEVEMTVPDTITEWKAGALCLSNDTGLGLSSVVPLQAFQPFFVEVSLPYSVVRGEAFMLKATVMNYLPTSMRMSVQLEASPDFTAVPVGDDHDSYCLSANGRHTSSWLVTPKSLGNVNFSVSVEAQQSSEPCGSEVATVPETGRKDTVVKVLIVEPEGIKQEHTFNSLFCASDAEISEKMSLVLPPTVVKDSARAHFSVMGDILSSAIKNTQNLLHMPYGCGEQNMVLFAPNIYVLKYLDKTQQLTQKIKTKALGFLRAGYQRELNYKHKDGSYSAFGDQNGEREGNTWLTAFVLKSFAQARAFIFIDESHITHAFTWLSQQQKDNGCFRSSGSLFHNDIKHPVVSKALSCLESSWKTIEQGRNANFVYTKALMAYAFALAGNQDKRNEILKSLDEEAIKEDNSIHWERPQKPRKSEHNLYKPQASSVEVEMNAYVVLARLTAQPAPSPEDLTLSRSTIMWLTKQQNSNGGFSSTQDTVVALDALSKYGAVTFSRRQKTSLVTIQSTGSFSQKFQVENSNCLLLQQVPLPDIPGDYTISVSGEGCVYAQTTLRYNMHLEKQQSAFALRVQTVPLTCNNPKGHNSFQISLEISYTGSRPASNMVIADVKMLSGFIPLKPTVKKLERLEHISRTEVSNNNVLLYLDQVTNQTLAFSFIIQQDISVRNLQPAIVKVYDYYETDEVAYAEYSSPCSSDKQNV
B7: Dematin (protein, UniProt Q9WV69 1-405, looked up)
Dematin: MERLQKQPLTSPGSVSSSRDSSVPGSPSSIVAKMDNQVLGYKDLAAIPKDKAILDIERPDLMIYEPHFTYSLLEHVELPRSRECSLSPKSTSPPPSPEVWAESRTLGIISQASTPRTTGTPRTSLPHFHHPETTRPDSNIYKKPPIYKQRESVGGSPQSKHLIEDLIIESSKFPAAQPPDPNQPAKIETDYWPCPPSLAVVETEWRKRKASRKGAEEEEEEEDDDSEEEIKAIRERQKEELSKVTSNLGKMILKEEMEKSLPIRRKTRSLPDRTPFHTSLHSGTSKSSSLPSYGRTTLSRLQSTEFSPSGSEAGSPGLQNGEGQRGRMDRGNSLPCVLEQKIYPYEMLVVTNKGRTKLPPGVDRMRLERHLSAEDFSRVFAMSPEEFGKLALWKRNELKKKASLF
B8: Alpha-1-antitrypsin 1-1 (protein, UniProt P07758 25-413, looked up)
Alpha-1-antitrypsin 1-1: EDVQETDTSQKDQSPASHEIATNLGDFAISLYRELVHQSNTSNIFFSPVSIATAFAMLSLGSKGDTHTQILEGLQFNLTQTSEADIHKSFQHLLQTLNRPDSELQLSTGNGLFVNNDLKLVEKFLEEAKNHYQAEVFSVNFAESEEAKKVINDFVEKGTQGKIAEAVKKLDQDTVFALANYILFKGKWKKPFDPENTEEAEFHVDESTTVKVPMMTLSGMLHVHHCSTLSSWVLLMDYAGNATAVFLLPDDGKMQHLEQTLSKELISKFLLNRRRRLAQIHFPRLSISGEYNLKTLMSPLGITRIFNNGADLSGITEENAPLKLSQAVHKAVLTIDETGTEAAAVTVLQMVPMSMPPILRFDHPFLFIIFEEHTQSPIFLGKVVDPTHK
B9: Metalloproteinase inhibitor 3 (protein, UniProt P39876 24-211, looked up)
Metalloproteinase inhibitor 3: CTCSPSHPQDAFCNSDIVIRAKVVGKKLVKEGPFGTLVYTIKQMKMYRGFSKMPHVQYIHTEASESLCGLKLEVNKYQYLLTGRVYEGKMYTGLCNFVERWDHLTLSQRKGLNYRYHLGCNCKIKSCYYLPCFVTSKNECLWTDMLSNFGYPGYQSKHYACIRQKGGYCSWYRGWAPPDKSISNATDP
B10: Triosephosphate isomerase (protein, UniProt P17751 2-249, looked up)
Triosephosphate isomerase: APTRKFFVGGNWKMNGRKKCLGELICTLNAANVPAGTEVVCAPPTAYIDFARQKLDPKIAVAAQNCYKVTNGAFTGEISPGMIKDLGATWVVLGHSERRHVFGESDELIGQKVSHALAEGLGVIACIGEKLDEREAGITEKVVFEQTKVIADNVKDWSKVVLAYEPVWAIGTGKTATPQQAQEVHEKLRGWLKSNVNDGVAQSTRIIYGGSVTGATCKELASQPDVDGFLVGGASLKPEFVDIINAKQ

tested on: coronal proteins on NPs; design: species or system mouse; settings: HBPE-NPs incubated 1 h with IAV day 5 (V5) mouse sera, 20:1 NP:sera, centrifuged and washed

Molecule | V5 Sera_Nanoparticles Quantitative Value (Normalized Total Spectra)
B1 | 1.0879
B2 | 1.0879
B3 | 1.0879
B4 | 1.0879
B5 | 40.253
B6 | 39.165
B7 | 1.0879
B8 | 35.901
B9 | 1.0879
B10 | 1.0879

same assay, conditions: IAV day 5 (V5) mouse sera alone, no NPs (sera-only control)

Molecule | V5 Sera Alone (Control) Quantitative Value (Normalized Total Spectra)
B1 | 0
B2 | 0
B3 | 0
B4 | 0
B5 | 60.14
B6 | 29.607
B7 | 0
B8 | 55.514
B9 | 0
B10 | 0.9252
